Values quoted from earlier work, collected in patent US20240124533A1, “NEW HER2-BINDING POLYPEPTIDE” (AFFIBODY AB, priority 2021, published 2024).

Target: HER2 (Homo sapiens, UniProt P04626)
Settings: ^99mTc-labelled; 4 h after injection; cited from earlier work

Substance: H2BPP3: HER2-binding reference polypeptide containing a C-terminal KVDC chelator (SEQ ID NO:3), ZHER2:2395 of Ahlgren et al (2009), recombinantly produced [Polypeptide H2BPP3]
- renal uptake: 140-190 % ID/g
